Compound potency records, mixed from different reports. Data source: NIAID ChemDB in PubChem.

Common to all: growth or infection tests; species: Candida krusei; endpoint: MIC

An empty or dashed field is not shown. Neighbouring rows are from separate reports.

structure	strain	read by	conditions	value
Cc1ccc(N2N=C(c3c[nH]c4ccccc34)CC2c2cc(Cl)cc(Cl)c2)cc1	NRRL Y-7179	broth dilution		50 µg/mL
C[C@@H]([C@H](N)C(=O)N[C@H](C(=O)O)[C@H]1O[C@@H](n2ccc(=O)[nH]c2=O)[C@H](O)[C@@H]1O)[C@H](O)c1ccc(O)cn1		visual reading		>500 µg/mL
CCC[CH2][Sn+3].[S-]C(=Nc1ccccc1Cl)N/N=C(\c1ccccc1)c1ccccn1	ATCC 200298	broth dilution		26.12 µM
CC(C)C(NC(=O)C(N)Cc1ccccc1)C(=O)NC(Cc1ccc(O)cc1)C(=O)O	ATCC 6258	broth dilution		350 µg/mL
O=C1C=CC[C@H](/C=C/c2ccccc2)O1		broth dilution		62.1 µg/mL
CC1C(=O)N(CCCCc2ccccc2)C(=O)C1C	CCC 117-2000	broth dilution / turbidity		62.5 µg/mL
CCCCCCCCCCCCCCCC(=O)NC(CCCCN)C(=O)NC(CCCCN)C(N)=O	6258	broth dilution		2 µg/mL
COc1ccc(-c2cc(=O)c3c(O)c([C@@H]4O[C@H](CO)[C@@H](O)[C@H](O)[C@H]4O)c(O)cc3o2)cc1O	ATCC 6258	broth dilution		>500 µg/mL
Clc1ccccc1C(c1ccccc1)(c1ccccc1)n1ccnc1	Clinical isolates		24 h	4 µg/mL
O=c1c(N2CCOCC2)c(N2CCN(S(=O)(=O)Cc3ccccc3)CC2)cnn1-c1ccccc1	C245	broth dilution		25 µg/mL
Cc1ccc(C(O)c2cccc(C(=O)CCn3ccnc3)c2)cc1	RTCC 1090	broth dilution		>64 µg/mL
CCCNS(=O)(=O)c1ccc(CN(C)CC(O)(Cn2cncn2)c2ccc(F)cc2F)cc1	506	resazurin		12.6 µg/mL
C/C1=C\C(=O)c2c(C)coc2C/C(C)=C/CC1	ATCC 6258	broth dilution		>256 µg/mL
CN(Cc1ccc(S(=O)(=O)NC(C)(C)C)cc1)CC(O)(Cn1cncn1)c1ccc(F)cc1F	8	resazurin		1 µg/mL
COC(=O)/C(C)=C1\C(=O)[C@H](O)[C@]2(C)C3=C1[C@]14OC(=O)C5=C1C[C@H]1[C@](O)(COC(=O)/C(C)=C/COC(=O)CCC(=O)OC5)[C@H]5C[C@H]5[C@]1(C)[C@@H]4C[C@]3(O)[C@H]1C[C@H]12	ATCC 6258	broth dilution		64 µg/mL
O=C(/C=C/c1c(Cl)cccc1Cl)c1c[nH]c2ccccc12	NRRL Y-7179	broth dilution		200 µg/mL
CC(C)=CCN=C(NCC=C(C)C)NCC=C(C)C	ATCC 6258			62.5 µg/mL
CCOC(=O)C1C(=O)C=C(c2ccc(Br)cc2)CC1c1ccc(C2CC(c3ccc(Br)cc3)=CC(=O)C2C(=O)OCC)cc1	Clinical isolate			6.25 µg/mL
C[C@@H]1C(=O)N(CCc2ccccc2)C(=O)[C@@H]1C	CCC 117-2000	broth dilution / turbidity		125 µg/mL
CCOc1ccc2nc3cc(N=C4NC(=O)/C(=C\c5ccc([N+](=O)[O-])o5)S4)ccc3c(N)c2c1		broth dilution		62.5 µg/mL
CO[N-]c1nc(Cl)nc2c1[N+](C/C=C(\C)CC/C=C(\C)CC/C=C(\C)CCC=C(C)C)=C=[N+]2C	ATCC 6258	agar		>16 µg/mL
O=C(CCn1ccnc1)c1cccc(C(O)c2ccc(Cl)cc2)c1	RTCC 1001	broth dilution		64 µg/mL
CO[C@@]12OC(=O)C(C)=C1C1=C3[C@](C)([C@@H]4C[C@@H]4[C@@]3(O)C[C@@H]3[C@]14OC(=O)C1=C4C[C@H]4[C@](O)(COC(=O)/C(C)=C/COC(=O)CCC(=O)OC1)[C@H]1C[C@H]1[C@]34C)[C@H]2O	ATCC 6258	broth dilution		>256 µg/mL
C[C@@H]1C(=O)N(Cc2ccccc2)C(=O)[C@@H]1C	CCC 117-2000	broth dilution / turbidity		62.5 µg/mL
COC(=O)/C(C)=C1\C(=O)[C@H](O)[C@]2(C)C3=C(C[C@@H]4[C@]5(OC(=O)C6=C5C[C@H]5[C@](O)(COC(=O)/C(C)=C/COC(=O)CCC(=O)OC6)[C@H]6C[C@H]6[C@]45C)[C@H]31)[C@H]1C[C@H]12	ATCC 6258	broth dilution		64 µg/mL
CN(Cc1ccc(NS(=O)(=O)c2ccc([N+](=O)[O-])cc2)cc1)CC(O)(Cn1cncn1)c1ccc(F)cc1F	8	resazurin		18.3 µg/mL
Nc1scc2c1c(=O)oc1ccc3ccccc3c12	ATCC 6258	broth dilution		256 µg/mL
OC(CCn1ccnc1)c1ccc(-c2ccccc2)cc1	RTCC 1090	broth dilution		>64 µg/mL
CN(Cc1ccc(S(N)(=O)=O)cc1)CC(O)(Cn1cncn1)c1ccc(F)cc1F	506	resazurin		13 µg/mL
CCC[CH2][Sn+3].O=[N+]([O-])c1ccccc1N=C([S-])N/N=C(\c1ccccc1)c1ccccn1	ATCC 200298	broth dilution		6.42 µM
CCOC(=O)C1C(=O)C=C(c2ccc(C)cc2)CC1c1ccc(C2CC(c3ccc(C)cc3)=CC(=O)C2C(=O)OCC)cc1	Clinical isolate			25 µg/mL
CC(C)S(=O)(=O)N1CCN(c2cnn(-c3cc(F)cc(F)c3)c(=O)c2OC2CCC(F)C2)CC1	C245	broth dilution		1 µg/mL
CO[N-]c1nc(N(C)C)nc2c1[N+](C/C=C(\C)CC/C=C(\C)CC/C=C(\C)CCC=C(C)C)=C=[N+]2C	ATCC 6258	agar		2 µg/mL
CCOC(=O)C1C(=O)C=C(c2ccc(OC)cc2)CC1c1ccc(C2CC(c3ccc(OC)cc3)=CC(=O)C2C(=O)OCC)cc1	Clinical isolate			100 µg/mL
Nc1[nH]c(=O)ncc1F	NBRC 1395	broth dilution	48 h	16 µg/mL
O=C(/C=C/c1cc(Cl)cc(Cl)c1)c1c[nH]c2ccccc12	NRRL Y-7179	broth dilution		200 µg/mL
C[C@@H]1C(=O)N(CCCCc2ccccc2)C(=O)[C@@H]1C	CCC 117-2000	broth dilution / turbidity		62.5 µg/mL
O=C(/C=C/c1ccc(Cl)cc1Cl)c1c[nH]c2ccccc12	NRRL Y-7179	broth dilution		200 µg/mL
CC(C)(O)c1cn(-c2ccc(Cl)cc2)nn1	URM 1059	broth dilution		64 µg/mL
C/C(=N\NC([S-])=Nc1ccccc1F)c1ccccn1.CCC[CH2][Sn+3]	ATCC 200298	broth dilution		14.98 µM
CC(C)=CCC/C(C)=C/CN(C/C=C(\C)CCC=C(C)C)C(=N)N	ATCC 6258			62.5 µg/mL
O=C(CCn1ccnc1)c1ccc2ccccc2c1	RTCC 1001	broth dilution		>64 µg/mL
CCCCCCCC/C=C\CCCCCCCC(=O)N[C@H](C(=O)N1C[C@H](C)C[C@H]1C(=O)N[C@H](C(=O)N[C@@H](CCO)C(=O)N[C@@H](C)CO)C(C)C)[C@@H](C)O	ATCC 6258	broth dilution / visual reading		>32 µg/mL
Cc1ccc(C(O)c2cccc(C(O)CCn3ccnc3)c2)cc1	RTCC 1090	broth dilution		>64 µg/mL
CCCCCCCCCCCC[n+]1cccc2ccccc21	E28	broth dilution	48 h	0.01562 µg/mL
CC(NC(=O)C(N)Cc1ccccc1)C(=O)NC(Cc1ccc(O)cc1)C(=O)O	ATCC 6258	broth dilution		348 µg/mL
O=C(O)c1ccc(C[C@H](C(=O)O)[C@@H](O)C(=O)O)cc1	DSM 6128			>4 µg/mL
CC(C)S(=O)(=O)Nc1ccc(CN(C)CC(O)(Cn2cncn2)c2ccc(F)cc2F)cc1	506	resazurin		17.5 µg/mL
C[C@H]1[C@H](O)[C@@H](C)/C=C/C=C/C=C/C=C/C=C/C=C/C=C/[C@H](O[C@@H]2O[C@H](C)[C@@H](O)[C@H](N)[C@@H]2O)C[C@@H]2O[C@](O)(C[C@@H](O)C[C@@H](O)CC[C@H](O)[C@@H](O)C[C@@H](O)CC(=O)O[C@H]1C)C[C@H](O)[C@H]2C(=O)O	Clinical isolate	absorbance		0.25 µg/mL

4 of the rows above, restated:

structure,strain,read by,conditions,value
CO[C@@]12OC(=O)C(C)=C1C1=C3[C@](C)([C@@H]4C[C@@H]4[C@@]3(O)C[C@@H]3[C@]14OC(=O)C1=C4C[C@H]4[C@](O)(COC(=O)/C(C)=C/COC(=O)CCC(=O)OC1)[C@H]1C[C@H]1[C@]34C)[C@H]2O,ATCC 6258,broth dilution,,>256 µg/mL
CC(C)=CCC/C(C)=C/CN(C/C=C(\C)CCC=C(C)C)C(=N)N,ATCC 6258,,,62.5 µg/mL
O=C(CCn1ccnc1)c1cccc(C(O)c2ccc(Cl)cc2)c1,RTCC 1001,broth dilution,,64 µg/mL
C[C@H]1[C@H](O)[C@@H](C)/C=C/C=C/C=C/C=C/C=C/C=C/C=C/[C@H](O[C@@H]2O[C@H](C)[C@@H](O)[C@H](N)[C@@H]2O)C[C@@H]2O[C@](O)(C[C@@H](O)C[C@@H](O)CC[C@H](O)[C@@H](O)C[C@@H](O)CC(=O)O[C@H]1C)C[C@H](O)[C@H]2C(=O)O,Clinical isolate,absorbance,,0.25 µg/mL